Source: US20090176776A1, “SMALL MOLECULE INHIBITORS OF HIV-1 CAPSID ASSEMBLY” (UNIVERSITY OF ALABAMA AT BIRMINGHAM, priority 2005, published 2009)

How the values were obtained:
Type in all cases: cell-based
[1] = test system: HIV-1YU2; experiment: Anti-HIV assay (multiple round), luciferase expression in Luc-M7 cells; details: TC50/IC50
Procedure: Anti-HIV Assays (Multiple Round). The inhibitory effects of the tested compounds on HIV-1YU2 replication were determined by the level of luciferase expression after 6 days of infection using Bright-Glo assay (Promega). An amount of 1.5×10^4 Luc-M7 (a gift from Ned Landau) cells per ml were infected with HIV-1YU2 at a multiplicity of infection (MOI) of 3. The HIV-1 infected ([…] compound) or mock-infected (0-300 μM compound) Luc-M7 cells were placed in 96-well culture plates (100 μl/well) with 100 μl of various concentrations of the compounds with 20 μg/ml DEAE Dextran in triplicate and incubated at 37° C. under 5% CO2 at 100% humidity. After 6 days, cell viability was quantified by Cell-Titer Glo assay (Promega). […] On day 5 cell viability was determined in the mock-infected cells. FIGS. 12-18 show the anti-HIV assays for the examples of chemical compounds used according to the invention. After in-vitro assay, the chemical compounds in FIGS. 12-18 were selected for screening for cell viability and toxicity. Jurkat cells assay was used as screening assay. […] After five days, GFP expression was read. Cell viability was monitored with Alamar Blue assay. Luc M7 assay was designed to measure inhibitory activity of the chemical compounds to viral replication. After infection of cells with YU2 virus, plate cells in 96-well plate in the presence of six concentration of compounds in DMSO. At day 6, the number of cells in wells were read with Cell Titer Glo kit or by counting the number of cells infected with Bright Glo kit. 293T cells assay was designed to determine the toxicity. 293T cells were transfected with NL43. After four hours, transfected cells were plated in 96-well plate in DMSO and 2 μM Indinavir. 72 hours later, viral supernatant was collected and plated on J[…].

[2] = test system: HIV-1NL43; experiment: Anti-HIV assay (single round), p24 production by pNL43-transfected cells (ELISA); details: 293T cells; TC50/IC50
Procedure: (§1) Anti-HIV Assays (Single Round). The inhibitory effect of the compounds on virus production and infectivity were determined by measuring the level of p24 produced in the presence of various concentrations of compounds from HEK-293 cells transiently transfected with pNL43 and by titering the virus on TZM-b1 cells. Briefly, 2.5×10^5 HEK-293 cells/ml were transfected with pNL43 using FuGene 6. Four hours post transfection the cells were plated in 96-well plates containing 100 μl of various concentrations of compounds (0-75 μM or 0-300 μM for mock transfected cells) in triplicate. At 72-hours post transfection virus supernatant was collected and stored at −80° C. until analysis. The level of p24 produced at each compound concentration was determined relative to the level produced in the presence of the DMSO only controls using HIV-1 p24 enzyme-linked immunosorbent assay (ELISA) (Beckman-Coulter). To determine the infectivity of the virus produced TZM-b1 cells were plated at 1×10^5 cells/ml in 100 μL in 96-well plates overnight. The next day, the media was replaced with 75 μL DMEM supplemented with 1% FBS, 1× PSG and 40 μg/ml DEAE Dextran and 25 μL of viral supernatant from the HEK-293 cells was added to each well. Three hours later 100 μL of DMEM with 7% FBS was added to each well. Two days after infection the cells were lysed and the level of luciferase expression was determined using the Bright-Glo assay.
(§2) FIGS. 12-18 show the anti-HIV assays for the examples of chemical compounds used according to the invention. After in-vitro assay, the chemical compounds in FIGS. 12-18 were selected for screening for cell viability and toxicity. Jurkat cells assay was used as screening assay. In Jurkat cells assay, JLTRG-R5 cells were used as Indicator cells and MOLT4 cells as Producer cells of NL43 and BAL virus. 96 chemical compounds were plated at seven different concentration from 75 μM to 0 μM at three-fold serial dilutions in 384 well plate. After five days, GFP expression was read. Cell viability was monitored with Alamar Blue assay. Luc M7 assay was designed to measure inhibitory activity of the chemical compounds to viral replication. After infection of cells with YU2 virus, plate cells in 96-well plate in the presence of six concentration of compounds in DMSO. At day 6, the number of cells in wells were read with Cell Titer Glo kit or by counting the number of cells infected with Bright Glo kit. 293T cells assay was designed to determine the toxicity. 293T cells were transfected with NL43. After four hours, transfected cells were plated in 96-well plate in DMSO and 2 μM Indinavir. 72 hours later, viral supernatant was collected and plated on JC53BL. Luciferase expression was measure after two days and p24 analysis was conducted with 1:1000 and 1:2000 dilutions.

[3] = test system: HIV-1NL43; experiment: Anti-HIV assay (single round), infectivity of virus produced, titered on TZM-b1 cells; details: 293T cells; TC50/IC50
Procedure: as §1, §2

| SMILES | TI [1] | TI - p24 [2] | TI - infectivity [3] |
| --- | --- | --- | --- |
| CC(=NNC(=O)C(O)c1ccccc1)c1ccc2c(c1)CCCC2 (centres unmarked) [Compound 6] | 2.39 |  |  |
| CCOC(=O)c1c(N2C(=O)C=CC2=O)sc2c1CCCC2 [Compound 8] | 2.08 |  |  |
| COc1ccc(NS(=O)(=O)c2ccc(Br)cc2)cc1OC [Compound 14] |  | 1.62 |  |
| Nc1nc(-c2ccccc2Cl)cs1 [Compound 15] | 2.98 |  |  |
| Cc1cc(F)ccc1NCc1ccccn1 [Compound 16] | 3.74 |  |  |
| Cc1nc2ccccc2n1Cc1ccc(Br)cc1 [Compound 18] |  | 5.06 | 0.21 |
| O=[N+]([O-])c1c(Cl)cc(O)c2c1C1C=CCC1C(c1ccc(Br)cc1)N2 (centres unmarked) [Compound 25] |  | 16.7 | 9.83 |
| Cc1ncc(C[n+]2csc(CCOC(=O)C3C4CC5CC(C4)CC3C5)c2C)c(N)n1.Cl.[Cl-] (centres unmarked) [Compound 26] |  | 3.21 |  |
| O=C(O)c1ccc2c(c1)C1C=CCC1C(c1ccc([N+](=O)[O-])cc1)N2 (centres unmarked) [Compound 41] | 31.33 |  |  |
| O=C(O)C(S)Cc1ccc(Cl)cc1 (centres unmarked) [Compound 47] |  | 8.21 | 5.91 |
| CCc1ccc(OCCCCCn2ccnc2)cc1 [Compound 58] | 145.00 | 2.96 | 0.50 |
| O=C(O)c1ccc2c(c1)C1C=CCC1C(c1cccc([N+](=O)[O-])c1)N2 (centres unmarked) [Compound 59] | 18.69 |  |  |
| CC(C)(C)c1ccc(OCCN2CCOCC2)cc1 [Compound 60] | 17.95 |  |  |
| CCN(CC)c1ccc(C=Nc2ccc(Sc3ccc([N+](=O)[O-])cc3)cc2)cc1 [Compound 70] | 62.93 | 2.00 | 4.11 |
| Cc1ccc(S(=O)(=O)NN=Cc2cc(Br)cc(Br)c2O)cc1 [Compound 73] |  | 2.55 | 5.58 |
